Data as given in PubChem BioAssay AID504761 (Drosophila RNAi Screening Center, 2011)
The screen tested about 22,000 reagents; this is an unselected part of those that have a named target and a result. Over the whole deposit, 116 (0.52%) are marked active. 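Calls depend on retest data that are not deposited; infection was ranked per plate without normalising between plates; the unit of the infection score is not given.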 Raw values are not corrected between plates. Unmarked entries are inactive. Names joined by + are all predicted targets of the reagent. Reagent sequences are not shown. Not stated in the record: the amount of reagent, the time to read-out.

Screen: 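Genome-wide fly cell screen for genes dengue virus requires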 (primary screen)
System: D.Mel-2 cells from Drosophila
Reagents: long dsRNA against Drosophila genes
Conditions: infection with dengue virus type 2; dose and infection time not stated
Read-out: 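Cells stained for dengue envelope protein and imaged; percent of infected cells per well on duplicate plates, ranked by infection, with stained nuclei counted for cell number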
Direction: infection score: higher = more virus-infected cells; cell count: higher = more cells in the well
Hit rule: 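Very low infection ranking in both replicate wells (chance probability at most 0.065), then a retest showing infection dropped 1.5-fold or more at p below 0.05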
Calls: active = confirmed: knock-down lowers infection; inactive = not picked or not confirmed

predicted target | amplicon | infection score, replicate 1 | infection score, replicate 2 | cell count, replicate 1 | cell count, replicate 2
CG7579 | DRSC10885 | 0.2 (active) | 0.55 | 5864 | 6193
Spx (Spliceosomal protein on the X) | DRSC18720 | 11 | 11.9 | 1354 | 1327
Spx (Spliceosomal protein on the X) | DRSC23542 | 11.8 | 14.4 | 2280 | 2700
CG8677 | DRSC03107 | 15.2 | 26.4 | 6450 | 5449
CG8677 | DRSC23559 | 4.87 | 2.91 | 6406 | 6253
VhaM9.7-c (Vacuolar H[+] ATPase M9.7 subunit c) | DRSC08204 | 14 | 5.28 | 6155 | 6254
VhaM9.7-c (Vacuolar H[+] ATPase M9.7 subunit c) | DRSC30083 | 5.82 | 11.8 | 6052 | 5825
Gbeta13F (G protein beta subunit 13F) | DRSC20247 | 5.07 | 2 | 5778 | 5886
dmrt99B (doublesex-Mab related 99B) | DRSC22977 | 0.85 | 15.3 | 6381 | 6862
dmrt99B (doublesex-Mab related 99B) | DRSC25777 | 3.65 | 0.82 | 6731 | 6546
CG42355 | DRSC07967 | 1.53 | 0.22 | 5758 | 5805
Alg7 | DRSC02833 | 3.67 | 15.2 | 6618 | 5774
Alg7 | DRSC02834 | 14.3 | 27.4 | 6008 | 3961

A few values from above:
Entry for Alg7 [DRSC02834] in “cell count, replicate 2”: 3961
For “cell count, replicate 2”, Spx (Spliceosomal protein on the X) [DRSC18720] has 1327
Under “infection score, replicate 2”, Spx (Spliceosomal protein on the X) [DRSC23542] reads 14.4
Entry of CG42355 [DRSC07967] under “cell count, replicate 1”: 5758
For “cell count, replicate 1”, Gbeta13F (G protein beta subunit 13F) [DRSC20247] shows 5778

Next entries follow:
predicted target | amplicon | infection score, replicate 1 | infection score, replicate 2 | cell count, replicate 1 | cell count, replicate 2
CG15012 | DRSC08465 | 5.48 | 4.72 | 6020 | 6119
CG12010 | DRSC08218 | 0.33 | 2.26 | 5741 | 6117
Atg17 (Autophagy-related 17) | DRSC12221 | 18.2 | 1.55 | 5256 | 6370
C3G (C3G guanyl-nucleotide exchange factor) | DRSC17929 | 5.39 | 5.37 | 6395 | 6486
C3G (C3G guanyl-nucleotide exchange factor) | DRSC23077 | 2.14 | 9.53 | 5899 | 5678
C3G (C3G guanyl-nucleotide exchange factor) | DRSC29081 | 11.5 | 5.65 | 4375 | 6263
Nup93-2 (Nucleoporin 93kD-2) | DRSC16221 | 14.8 | 15.8 | 5513 | 4670
Trs23 (TRAPP subunit 23) | DRSC03190 | 2.84 | 2.11 | 6016 | 6172
Trs23 (TRAPP subunit 23) | DRSC29243 | 11 | 5.72 | 5541 | 5714
CG9107 | DRSC03138 | 6 | 23.7 | 5888 | 5355
CG42505 + CG42504 + CG31358 | DRSC15235 | 7.47 | 4.15 | 6763 | 7032
CG42505 + CG42504 + CG31358 | DRSC15308 | 8.81 | 6.05 | 6461 | 6581
CG42505 + CG42504 + CG31358 | DRSC15309 | 4.8 | 5.81 | 6499 | 895
CHMP2B (Charged multivesicular body protein 2b) | DRSC10436 | 9.89 | 2.71 | 6209 | 6426
CHMP2B (Charged multivesicular body protein 2b) | DRSC26221 | 10.8 | 4.27 | 6594 | 5857
CG13465 | DRSC10011 | 1.62 | 0.86 | 6191 | 6401
CG7058 | DRSC20021 | 3.33 | 3.23 | 2372 | 5719
CG7058 | DRSC25937 | 2.09 | 3.8 | 6369 | 6403
CG42336 | DRSC05273 | 0.27 | 0.42 | 6300 | 6213
CG42336 | DRSC06332 | 10.6 | 21 | 6177 | 6070
CG42336 | DRSC06333 | 7.38 | 6.6 | 6300 | 6285
CG42336 | DRSC28729 | 24.3 | 22 | 6222 | 5316
CG42336 | DRSC29534 | 16.5 | 20.7 | 4485 | 3684
Gasz | DRSC06829 | 10.8 | 6.57 | 6498 | 6655
Gasz | DRSC27833 | 8.75 | 12.9 | 6752 | 5628
CG33469 | DRSC22900 | 0.7 | 3.96 | 5745 | 6138
